From US8937154B2, “Stabilized therapeutic small helical antiviral peptides” (priority 2006, dated 2015)

System: 293T cells
Test: Confocal microscopy of cell penetration
Assay type: cell-based
Settings: fluorescently labelled peptide, live cells

## 5FAM-β-Ala-NYAD-40: 6-carboxyfluorescein (FAM)-labelled linear peptide NYAD-40 (ISFDELLDYYGESGS; 5-FAM-β-Ala N-terminal label; Linear peptide NYAD-40) [reference compound]
  penetration of the cell membrane / uptake by cells: did not penetrate

## CC[C@H](C)[C@H](N)C(=O)N[C@@H](CO)C(=O)N[C@@H](Cc1ccccc1)C(=O)N[C@]1(C)CCCCCC/C=C\CCC[C@@](C)(C(=O)N[C@@H](CCC(=O)O)C(=O)N[C@@H](CO)C(=O)NCC(=O)N[C@@H](CO)C(N)=O)NC(=O)[C@H](Cc2ccc(O)cc2)NC(=O)[C@H](Cc2ccc(O)cc2)NC(=O)[C@H](CC(=O)O)NC(=O)[C@H](CC(C)C)NC(=O)[C@H](CC(C)C)NC(=O)[C@H](CCC(=O)O)NC1=O [NYAD-36] (H-ISF[R8]ELLDYY[S5]ESGS-NH2; staple (Z) 4-11)
  penetration of the cell membrane / uptake by cells: penetrated the cell membrane

Where a SMILES comes first, the peptide text is derived from it. Bridges are numbered along the chain shown (N, C = ends). [ ]: non-standard residue; d: D form. R8 = C=CCCCCCC[C@@](C)(N)C(=O)O; S5 = C=CCCC[C@](C)(N)C(=O)O
